Compound potency records, mixed from different reports. Data source: NIAID ChemDB in PubChem.

All rows: whole-cell or culture tests; organism: HIV-2

ECn: concentration that inhibits the pathogen or its effect by n%. Blank or dashed fields: not listed here. Rows are shuffled and stem from different studies.

| compound | measure | method | cell line | strain or isolate | result |
|---|---|---|---|---|---|
| Cc1cn([C@@H]2O[C@H](COC(=O)C(C)(C)C)C3(OS(=O)(=O)C=C3N)[C@H]2O[Si](C)(C)C(C)(C)C)c(=O)[nH]c1=O | EC50 | syncytia | CEM | ROD | >35 µM |
| Nc1nc(NC2CCCC2)c2ncn(CCOCP(=O)(O)O)c2n1 | EC50 | cytopathic effect / MTT | CEM | ROD | 1.75 µg/mL |
| Nc1nc(Cl)nc2c1ncn2[C@H]1C=C[C@@H](OCP(=O)(O)O)O1 | EC50 | RT activity | MT-4 | ROD | 89.2 µg/mL |
| Cc1cn([C@H]2C[C@@H]3[C@@H](COCN3O)O2)c(=O)[nH]c1=O | EC50 | syncytia | CEM | ROD | 25 µg/mL |
| CNc1nc(NC)c2ncn([C@H]3C=C[C@@H](OCP(=O)(O)O)O3)c2n1 | EC50 | RT activity | MT-4 | ROD | >125 µg/mL |
| COP(=O)(O)C[C@H](NP(=O)(O)OC[C@@H]1C=C[C@H](n2cc(C)c(=O)[nH]c2=O)O1)C(=O)O | EC50 | MTT | CEM | ROD | 1.44 µM |
| Cc1cn([C@@H]2O[C@H](CO[Si](C(C)(C)C)(C(C)(C)C)C(C)(C)C)C3(OS(=O)(=O)C=C3N)[C@H]2O[Si](C)(C)C(C)(C)C)c(=O)n(C)c1=O | EC50 | syncytia | MT-4 | ROD | >30 µM |
| Cc1cn([C@H]2C=C[C@@H](COP3(=O)OCc4c(Cl)cccc4O3)O2)c(=O)[nH]c1=O | EC50 |  | CEM + CEM/O |  | 0.15 µM |
| C1CNCCNCCCNCCNC1.O=S(=O)([O-])[O-].[O]=[V+2] | EC50 | MTT | MT-4 | ROD | >340 µM |
| CC(C)CN(C[C@@H](O)[C@H](Cc1ccccc1)NC(=O)[C@@H](NC(=O)CNCc1cccc(F)c1)C(C)(C)C)S(=O)(=O)c1cccc(N)c1 | EC50 | virus yield | MT-2 |  | <0.01 µM |
| Cc1cn([C@H]2C=C[C@@H](COP(=O)(O)N[C@@H](CC(=O)O)C(=O)O)O2)c(=O)[nH]c1=O | EC50 | MTT | CEM/TK- | ROD | 184 µM |
| Cc1cccc2c1O[P@](=O)(OC[C@@H]1C=C[C@H](n3cc(C)c(=O)[nH]c3=O)O1)OC2 | EC50 |  | CEM + CEM/O |  | 0.07 µM |
| CCCN(C)c1nc(N)nc2c1[nH]c[n+]2C[C@@H](C)OCP(=O)(O)O | EC50 | cytopathic effect / MTT | MT-4 | ROD | 55.9 ± 14 µg/mL |
| O=C(N/N=C/c1c(Cl)cccc1Cl)c1csc(N2N=C(c3ccccc3)CC2c2ccc(Cl)cc2)n1 | EC50 | MTT / absorbance | MT-4 | ROD | >6.26 µM |
| CO[Si](OC[C@H]1O[C@@H](n2cc(C)c(=O)n(C)c2=O)[C@H](O[Si](C)(C)C(C)(C)C)C12OS(=O)(=O)C=C2N)(c1ccccc1)C(C)(C)C | EC50 | syncytia | CEM | ROD | >6.6 µM |
| Cc1cn([C@H]2C=C[C@@H](COP(=O)(O)N(CC(=O)O)CC(=O)O)O2)c(=O)[nH]c1=O | EC50 | MTT | MT-4 | ROD | 0.21 µM |
| Cc1cn([C@@H]2O[C@H](CO[Si](C)(C)C(C)(C)C)C3(OS(=O)(=O)C=C3N)[C@H]2O[Si](C)(C)C(C)(C)C)c(=O)n(C)c1=O | EC50 | syncytia | CEM | ROD | >20 µM |
| O=C(N/N=C/c1cccc(O)c1)c1csc(N2N=C(c3ccccc3)CC2c2ccc(Cl)cc2)n1 | EC50 | MTT / absorbance | MT-4 | ROD | >66.85 µM |
| O=c1[nH]cnc2c1ncn2[C@H]1CC[C@@H](CO)O1 | EC50 | syncytia | CEM | ROD | 2.52 µg/mL |
| CC(C)(C)[Si](C)(C)OC[C@H]1O[C@@H](n2ccc(=O)[nH]c2=O)[C@H](O[Si](C)(C)C(C)(C)C)C12OS(=O)(=O)C=C2N | EC50 | cytopathic effect / trypan blue | MT-4 | ROD | >10 µM |
| Cc1cc(C=O)cc2c1OP(=O)(OC[C@@H]1C=C[C@H](n3cc(C)c(=O)[nH]c3=O)O1)OC2 | EC50 |  | CEM |  | 0.39 µM |
| COC(=O)[C@H](CCSC)NC(=O)COc1ccc2ccc(O[C@H]3O[C@H](C4COC(C)(C)O4)[C@@H]4OC(C)(C)O[C@H]34)cc2c1 | EC50 | cytopathic effect / MTT | MT-4 | ROD | >45 µg/mL |
| CC(C)Nc1cccnc1N1CCN(C(=O)c2cc3cc(NS(C)(=O)=O)ccc3[nH]2)CC1 | EC50 | RT activity | PBMC | ROD | >62.5 µM |
| Cc1cn([C@@H]2O[C@H](CO[Si](C)(C)C(C)(C)C)C3(OS(=O)(=O)C=C3N)[C@H]2O)c(=O)[nH]c1=O | EC50 | cytopathic effect / trypan blue | MT-4 | ROD | >40 µM |
| CC[C@@]1(O)C(=O)OCc2c1cc1n(c2=O)Cc2c-1nc1ccccc1c2CO | EC50 | syncytia | C8166 | ROD | 0.0024 µg/mL |
| c1cc(CN2CCCNCCNCCCNCC2)ccc1CN1CCCNCCNCCCNCC1 | EC50 | cytopathic effect / MTT | MT-4 | EHO | 0.004 µg/mL |
| Cc1cn([C@H]2C=C[C@@H](CO)O2)c(=O)[nH]c1=O | EC50 |  | CEM + CEM TK- |  | 15 µM |
| O=c1[nH]cnc2c1ncn2[C@H]1CC[C@@H](CO)O1 | EC50 |  | MT-4 |  | 16 µg/mL |
| Cc1cn([C@@H]2O[C@H](CO)C3(OS(=O)(=O)C=C3N)[C@H]2O)c(=O)[nH]c1=O | EC50 | cytopathic effect / trypan blue | MT-4 | ROD | >300 µM |
| Cc1ccnc2c1NC(=O)c1cccnc1N2C1CC1 | EC50 | RT activity | PBMC | ROD | >20 µM |
| Cc1cn([C@@H]2O[C@H](CO[Si](C)(C)C(C)(C)C)C3(OS(=O)(=O)C=C3N)[C@H]2O[Si](C)(C)C(C)(C)C)c(=O)n(CC(=O)N[C@@H](C)C(=O)OCc2ccccc2)c1=O | EC50 | syncytia | CEM | ROD | >250 µM |
| CC(=O)Oc1ccc(/C=C/C(=O)O[C@H](C(=O)O)[C@H](OC(=O)/C=C/c2ccc(OC(C)=O)c(OC(C)=O)c2)C(=O)O)cc1OC(C)=O | EC50 | cytopathic effect / MTT | MT-4 | ROD | 5 µM |
| CN(C)c1ncnc2c1ncn2CCOCP(=O)(O)O | EC50 | cytopathic effect / MTT | CEM | ROD | 85 µg/mL |
| O=C(NCc1ccc(F)cc1)c1nc(N2CCCCS2(=O)=O)c2cccnc2c1O | EC50 | β-galactosidase |  | ROD | 0.0086 µM |
| CC(=O)NC1=CS(=O)(=O)OC12[C@@H](COCc1ccccc1)O[C@@H](n1cc(C)c(=O)[nH]c1=O)[C@@H]2OC(C)=O | EC50 | syncytia | MT-4 | ROD | >160 µM |
| COc1nc(Cl)nc2c1ncn2[C@H]1C=C[C@@H](OCP(=O)(O)O)O1 | EC50 | RT activity | MT-4 | ROD | >125 µg/mL |
| Cc1cn([C@H]2C=C[C@@H](COP3(=O)Oc4cccc(Cl)c4C(C)O3)O2)c(=O)[nH]c1=O | EC50 |  | CEM + CEM TK- |  | 7 µM |
| Cc1ccc(/C=N/NC(=O)c2csc(N3N=C(c4ccccc4)CC3c3ccc(Cl)cc3)n2)cc1 | EC50 | MTT / absorbance | MT-4 | ROD | >125 µM |
| Cc1cn([C@@H]2O[C@H](CO[Si](C)(C)C(C)(C)C)[C@@]3(OS(=O)(=O)C=C3N)[C@H]2O[Si](C)(C)C(C)(C)C)c(=O)n(CC(=O)N[C@@H](CCC(=O)O)C(=O)O)c1=O | EC50 | cytopathic effect / trypan blue | MT-4 | ROD | 250 µM |
| Cc1cn([C@H]2C=C[C@@H](COP3(=O)OCc4cc5ccccc5cc4O3)O2)c(=O)[nH]c1=O | EC50 |  | CEM + CEM/O |  | 0.5 µM |
| COc1cccc(/C=N/NC(=O)c2csc(N3N=C(c4ccccc4)CC3c3ccc(Cl)cc3)n2)c1O | EC50 | MTT / absorbance | MT-4 | ROD | >125 µM |
| CCn1nc(Cn2cc(C)c(=O)[nH]c2=O)nc1C | EC50 |  | MT-4 | ROD | >68 µg/mL |
| Cc1cn([C@H]2C[C@H](N=[N+]=[N-])[C@@H](CO)O2)c(=O)[nH]c1=O | EC50 | p24 / ELISA | PBMC |  | 0.001 µM |
| O=C(N/N=C/c1ccc(Cl)cc1)c1csc(N2N=C(c3ccccc3)CC2c2ccc(Cl)cc2)n1 | EC50 | MTT / absorbance | MT-4 | ROD | >125 µM |
| Cc1cn([C@H]2C=C[C@@H](COP3(=O)Oc4ccccc4C(C(Cl)(Cl)Cl)O3)O2)c(=O)[nH]c1=O | EC50 |  | CEM + CEM/O |  | 0.6 µM |
| COc1cc(/C=N/NC(=O)c2csc(N3N=C(c4ccccc4)CC3c3ccc(Cl)cc3)n2)ccc1OCc1ccccc1 | EC50 | MTT / absorbance | MT-4 | ROD | >125 µM |
| COc1nc(N)c2ncn([C@H]3C=C[C@@H](OCP(=O)(O)O)O3)c2n1 | EC50 | RT activity | MT-4 | ROD | 75.4 µg/mL |
| Cc1cn(Cc2nc(C)n(C)n2)c(=O)[nH]c1=O | EC50 |  | MT-4 | ROD | >53 µg/mL |
| N#CC[C@H](C1CCCC1)n1cc(-c2ncnc3[nH]ccc23)cn1 | EC90 | p24 / ELISA | PBMC |  | 0.4 µM |
| CCN(C)c1nc(N)nc2c1ncn2CCOCP(=O)(O)O | EC50 | cytopathic effect / MTT | MT-4 | ROD | 0.11 µg/mL |
| Cc1cn([C@H]2C=C[C@@H](COP3(=O)OCc4ccc5ccccc5c4O3)O2)c(=O)[nH]c1=O | EC50 |  | CEM + CEM/O |  | 0.12 µM |
| Cc1cn([C@@H]2O[C@H](CO[Si](C)(C)C(C)(C)C)C3(OS(=O)(=O)C=C3N)[C@H]2O[Si](C)(C)C(C)(C)C)c(=O)n(CCOC(=O)[C@@H](N)C(C)C)c1=O | EC50 | syncytia | CEM | ROD | >10 µM |
| O=C(N/N=C/c1ccc(Cl)cc1O)c1csc(N2N=C(c3ccccc3)CC2c2ccc(Cl)cc2)n1 | EC50 | MTT / absorbance | MT-4 | ROD | >0.45 µM |

Repeating the first 3 entries:

compound	measure	method	cell line	strain or isolate	result
Cc1cn([C@@H]2O[C@H](COC(=O)C(C)(C)C)C3(OS(=O)(=O)C=C3N)[C@H]2O[Si](C)(C)C(C)(C)C)c(=O)[nH]c1=O	EC50	syncytia	CEM	ROD	>35 µM
Nc1nc(NC2CCCC2)c2ncn(CCOCP(=O)(O)O)c2n1	EC50	cytopathic effect / MTT	CEM	ROD	1.75 µg/mL
Nc1nc(Cl)nc2c1ncn2[C@H]1C=C[C@@H](OCP(=O)(O)O)O1	EC50	RT activity	MT-4	ROD	89.2 µg/mL